Data from patent publication US7691818B2 (Universita' Degli Studi Di Treiste, priority 2004, dated 2010).

Experiment: general procedure: solution-phase peptide synthesis; PyBOP/HOBT/collidine

Substance | step yield (coupling step) [%] | isolated yield (whole synthesis) [%]
NH-Ac-Trp-Val-Phe-[φ]-Pro-Val-Trp-NH-Ac | 50 | 
NH-Ac-Ser-Leu-Asn-Phe-[φ]-Pro-Ile-Val-NH-Ac |  | 12
